A mixed list of measured activities; the numbers were collected in NIAID ChemDB.

Shared fields: growth or infection tests; species: Aspergillus fumigatus; read-out: MIC

Two numbers with a dash give a range or band. Lines come from different laboratories, so protocols vary. An empty or dashed field is not shown.

smiles,strain or isolate,result
CO[C@@H]1[C@H]2OC(C)(C)O[C@H]2O[C@@H]1C1=NOC(C)C1C(=O)O,,>50 µg/mL
CN[C@@H]1[C@H](O[C@@H]2OC[C@@H](O)[C@H](O)[C@H]2O)[C@@H](O)[C@H](O[C@H]2c3cc(C)c(C(=O)N[C@H](C)C(=O)O)c(O)c3-c3c(cc4c(c3O)C(=O)c3cc(OC)cc(O)c3C4=O)[C@@H]2O)O[C@@H]1C,IAM2530,1.6 µg/mL
CCS(=O)(=O)C(F)(F)C(O)(Cn1cncn1)c1ccc(F)cc1F,IFM 40808,2 µg/mL
OC(Cn1cncn1)(c1ccc(C(F)(F)F)cc1)C(F)(F)c1nc2ccccc2s1,IFM 40808,4 µg/mL
CN[C@@H]1[C@H](O[C@@H]2OC[C@@H](O)[C@H](O)[C@H]2O)[C@@H](O)[C@H](O[C@H]2c3cc(C)c(C(=O)N[C@H](C)C(=O)O)c(O)c3-c3c(cc4c(c3O)C(=O)c3cc(OC)cc(O)c3C4=O)[C@@H]2O)O[C@@H]1C,IAM2530,1.6 µg/mL
COC(/C=C/c1ccco1)=C1/C(=O)C=C(C)C1=O,ATCC 90906,>20 µg/mL
CCCCCCCCC[C@@H]1CC(=O)NCC(=O)N[C@@H](CCCCNC)C(=O)N[C@@H](C(C)C)C(=O)N1,TIMM0063,>128 µg/mL
CC(/C=C/C=C(\C)C(O)C(C)C(=O)O[C@H]1C[C@@H](C)C=C2C=C[C@]3(C)O[C@@H](O)CC(=O)[C@]3(C)[C@H]21)=C\C=C\C(=O)O,AC3447,50 µg/mL
NC(=S)c1ccnc(SCc2c(F)cccc2Cl)c1,231,>500 µM
OC(Cn1cncn1)(c1ccc(F)cc1)C(F)(F)c1cccs1,IFM 40808,1 µg/mL
C=C1C(=O)OCC1COC(=O)CCCCC,IFO8866,50 µg/mL
Cc1cc(NS(=O)(=O)c2ccc(N)cc2)no1,IFM 41362,64 µg/mL
CC1(C)O[C@H]2O[C@H](C3=NOC(C#N)C3)[C@H](OCc3ccccc3)[C@H]2O1,,>50 µg/mL
OB1OCc2ccc3ccccc3c21,,32 µg/mL
O=C1C[C@@H](c2ccc(F)c(Cl)c2)Cc2cc(O)cc(O)c21,Clinical isolate H237,617 µg/mL
CN(Cc1cccc2ccccc12)/N=C\c1ccc(F)cc1,,>64 µg/mL
CCCCCCCCCCS(=O)(=O)[C@H](C)[C@](O)(Cn1cncn1)c1ccc(F)cc1F,MTU6001,3.13 µg/mL
O=[N+]([O-])c1ccc(C(F)(F)C(O)(Cn2cncn2)c2ccc(F)cc2F)o1,IFM 40808,>8 µg/mL
CC(C(O)(Cn1cncn1)c1ccc(F)cc1F)S(C)(=O)=O,H11-20,40 µg/mL
CO[C@@H]1[C@H]2OC(C)(C)O[C@H]2O[C@@H]1C1=NOC(CBr)C1,,>50 µg/mL
C=C1CO[C@H]2[C@@H](C)OC(OC[C@@]34C[C@H]5[C@H](C)CC[C@@H]5[C@@]5(C=O)C[C@@H]3C=C(C(C)C)[C@@]45C(=O)O)C[C@@H]12,,>32 µg/mL
CCOC1CC([C@H]2O[C@@H]3OC(C)(C)O[C@@H]3[C@H]2OC)=NO1,,>50 µg/mL
CC(=O)OC(CCCC12OC(C(=O)O)C(O)(C(=O)O)C(C(=O)O)(O1)C(OC(=O)CCCCCC/C=C/c1ccccc1)C2O)C(C)C/C=C/c1ccccc1,10569,0.8 µg/mL
CC[C@@H]1OC(=O)[C@H](C)C(=O)C(O)(CO)C/C(Cl)=C/[C@@H](C)Cc2cccc1c2,TIMM1776,>64 µg/mL
CCCCCOc1ccc(-c2ccc(-c3ccc(C(=O)N[C@H]4C[C@@H](O)[C@@H](O)NC(=O)[C@@H]5[C@@H](O)[C@@H](C)CN5C(=O)[C@H]([C@H](C)O)NC(=O)[C@H]([C@H](O)[C@@H](O)c5ccc(O)cc5)NC(=O)[C@@H]5C[C@@H](O)CN5C(=O)[C@H]([C@H](C)O)NC4=O)cc3)cc2)cc1,94-46,>50 µg/mL
CS(=O)(=O)CC(O)(Cn1cncn1)c1ccc(F)cc1F,IFM 40808,>64 µg/mL
C=C1/C=C(\C)[C@H](CC)OC(=O)[C@H](C)C(=O)C(O)(CO)C/C(C)=C/[C@@H](C)C1,MF5668,>200 µg/mL
CCCCCCCCC[C@@H]1CC(=O)NCC(=O)N[C@@H](CCC(=O)O)C(=O)N[C@@H](C(C)C)C(=O)N1,TIMM0063,>64 µg/mL
CS[C@H](C)[C@](O)(Cn1cncn1)c1ccc(F)cc1F,MTU6001,1.56 µg/mL
CCCCCCCCC[C@@H]1CC(=O)NCC(=O)N[C@@H](CCCCN)C(=O)N[C@@H](CC(C)C)C(=O)N1,,>128 µg/mL
CCC(C)n1ncn(-c2ccc(N3CCN(c4ccc(OC[C@H]5CO[C@](Cn6cncn6)(c6ccc(Cl)cc6Cl)O5)cc4)CC3)cc2)c1=O,Clinical isolates,4 µg/mL
CCCS(=O)(=O)C(F)(F)[C@](O)(Cn1cncn1)c1ccc(F)cc1F,IFM 40808,4 µg/mL
COc1cc(O)c2c(c1)C(=O)c1c(cc3c(c1O)-c1c(cc(C)c(C(=O)N[C@H](C)C(=O)O)c1O)[C@H](O[C@@H]1O[C@H](C)[C@H](O)[C@H](O[C@@H]4OC[C@@H](O)[C@H](O)[C@H]4O)[C@H]1O)[C@H]3O)C2=O,5 isolates,2.5–5 µg/mL
C=C1/C=C(\C)[C@H](CC)OC(=O)[C@H](C)C(=O)C(O)(CO)C/C(OC)=C/[C@@H](C)C1,MF4839,>32 µg/mL
C[C@H]1[C@H](O)[C@@H](C)/C=C/C=C/C=C/C=C/C=C/C=C/C=C/[C@H](O[C@@H]2O[C@H](C)[C@@H](O)[C@H](N)[C@@H]2O)C[C@@H]2O[C@](O)(C[C@@H](O)C[C@@H](O)CC[C@H](O)[C@@H](O)C[C@@H](O)CC(=O)O[C@H]1C)C[C@H](O)[C@H]2C(=O)O,4 strains,0.2–2 µg/mL
NC(=S)c1ccnc(SCc2cccc(Cl)c2)c1,231,62.5 µM
CCCCCCCCCCC[C@H]1NC(=O)[C@H](CC(C)(C)C)NC(=O)[C@H](CCCCN)NC(=O)CNC(=O)[C@@H]1C,,128 µg/mL
CCCCCCCCCS(=O)(=O)[C@H](C)[C@](O)(Cn1cncn1)c1ccc(F)cc1F,MTU6001,≤0.2 µg/mL
Cc1ccc(C(C)C)cc1,CECT2071,>20 µg/mL
C=C1/C=C(\C)[C@H](CC)OC(=O)[C@H](C)C(=O)C(O)(CO)C/C(OC)=C/[C@@H](C)C1,MF5668,>200 µg/mL
CCCCC/C=C\C/C=C\CCCCCCCC(=O)N[C@H]1C[C@@H](O)[C@@H](O)NC(=O)[C@@H]2[C@@H](O)[C@@H](C)CN2C(=O)[C@H]([C@H](C)O)NC(=O)[C@H]([C@H](O)[C@@H](O)c2ccc(O)cc2)NC(=O)[C@@H]2C[C@@H](O)CN2C(=O)[C@H]([C@H](C)O)NC1=O,,>20 µg/mL
N#Cc1ccc(Nc2nc(Oc3ncnc4ccccc34)nc(N3CCN(Cc4ccccc4)CC3)n2)cc1C(F)(F)F,,>100 µg/mL
Cc1cc(NS(=O)(=O)c2ccc(N)cc2)nc(C)n1,IFM 48051,≥256 µg/mL
CCCCCCCCC[C@@H]1CC(=O)NCC(=O)N[C@@H](CCCCN(C)Cc2ccccc2)C(=O)N[C@@H](C(C)C)C(=O)N1,TIMM0063,>128 µg/mL
CN(Cc1cccc2ccccc12)/N=C\c1ccc(C(C)(C)c2ccccc2)cc1,,>64 µg/mL
CO[C@@H]1[C@H]2OC(C)(C)O[C@H]2O[C@@H]1C1=NOC(Cc2ccc(O)cc2)C1,,>50 µg/mL
CCS[C@H](C)[C@](O)(Cn1cncn1)c1ccc(F)cc1F,MTU6001,12.5 µg/mL
CCC(C)CC(C)CCCCCCCCC(=O)N[C@H]1C[C@@H](O)[C@H](NCCN)NC(=O)[C@@H]2[C@@H](O)CCN2C(=O)[C@H]([C@H](O)CCN)NC(=O)[C@H]([C@H](O)[C@@H](O)c2ccc(O)cc2)NC(=O)[C@@H]2C[C@@H](O)CN2C(=O)[C@H]([C@@H](C)O)NC1=O,MF5668,<0.03 µg/mL
CCCCCCCCCCCCCC(O)CC(O)C(N)CC(=O)CC(C)C(N)C(=O)NC(C=O)CO,,25 µg/mL
CCOC(=O)C1CC([C@H]2O[C@@H]3OC(C)(C)O[C@@H]3[C@H]3OC(C)(C)O[C@H]32)=NO1,,>50 µg/mL
CCN1CCN(c2nc(Nc3ccc(C#N)c(C(F)(F)F)c3)nc(Oc3ncnc4ccccc34)n2)CC1,MTCC 343,>100 µg/mL
NC(=S)c1ccnc(SCc2ccccc2F)c1,231,>500 µM
CCCCCCCCCCC[C@@H]1CC(=O)NCC(=O)N[C@@H](CCCCN)C(=O)N[C@@H](C(C(C)C)C(C)(C)C)C(=O)N1,TIMM0063,32 µg/mL
CCCCCCCCCC[C@H]1NC(=O)[C@H](CC(C)(C)C)NC(=O)[C@H](CCCCN)NC(=O)CNC(=O)[C@H]1O,,32 µg/mL
CCCCCCCCC[C@@H]1CC(=O)NCC(=O)N[C@@H](CCCN)C(=O)N[C@@H](C(C)C)C(=O)N1,TIMM0063,>32 µg/mL
CCC(C)n1ncn(-c2ccc(N3CCN(c4ccc(OC[C@H]5CO[C@](Cn6cncn6)(c6ccc(Cl)cc6Cl)O5)cc4)CC3)cc2)c1=O,4 strains,0.13 µg/mL
OC(Cn1cncn1)(c1ccc(F)cc1F)C(F)(F)c1ccccn1,IFM 40808,1 µg/mL
COc1cc2ccnc3c2c(c1OC(=O)c1ccc(C(C)(C)C)cc1)N(C)C=C3,,10 µg/mL
CCCCCCCCC[C@@H]1CC(=O)NCC(=O)N[C@@H](CCCCN)C(=O)N[C@@H](CCC(=O)O)C(=O)N1,TIMM0063,>128 µg/mL
CCCCCCCCCCS[C@H](C)[C@](O)(Cn1cncn1)c1ccc(F)cc1F,MTU6001,25 µg/mL
COc1cc(NS(=O)(=O)c2ccc(N)cc2)ncn1,IFM 47450,32 µg/mL
CCCCc1ccc(C(=O)Oc2c(OC)cc3ccnc4c3c2N(C)C=C4)cc1,,5 µg/mL
Nc1ccc(S(=O)(=O)Nc2ccnn2-c2ccccc2)cc1,IFM 53412,64 µg/mL
CS(C)=O,MTCC 343,>100 µg/mL
CCC(CC)n1ncn(-c2ccc(N3CCN(c4ccc(OC[C@@H]5CO[C@@](Cn6cncn6)(c6ccc(F)cc6F)C5)cc4)CC3)cc2)c1=O,H11-20,0.035 µg/mL
COc1ccc(CC2CC([C@H]3O[C@@H]4OC(C)(C)O[C@@H]4[C@H]3OCc3ccccc3)=NO2)cc1,,>50 µg/mL
O=C1C[C@@H](c2ccc(F)c(Br)c2)Cc2cc(O)cc(O)c21,Clinical isolate H237,>706 µg/mL
N#Cc1ccc(Nc2nc(Oc3ncnc4ccccc34)nc(N3CCN(c4ccccc4)CC3)n2)cc1C(F)(F)F,MTCC 343,>100 µg/mL
COc1cc(/C=N\N(C)Cc2cccc3ccccc23)cc(OC)c1OC,,>64 µg/mL
N#Cc1ccc(Nc2nc(Oc3ncnc4ccccc34)nc(N3CCN(C(c4ccccc4)c4ccccc4)CC3)n2)cc1C(F)(F)F,MTCC 343,25 µg/mL
CCCCCCCCC[C@H]1NC(=O)[C@H](CC(C)(C)C)NC(=O)[C@H](CCCN)NC(=O)CNC(=O)C1(F)F,,>128 µg/mL
C[C@H]1[C@H](O)[C@@H](C)/C=C/C=C/C=C/C=C/C=C/C=C/C=C/[C@H](O[C@@H]2O[C@H](C)[C@@H](O)[C@H](N)[C@@H]2O)C[C@@H]2O[C@](O)(C[C@@H](O)C[C@@H](O)CC[C@H](O)[C@@H](O)C[C@@H](O)CC(=O)O[C@H]1C)C[C@H](O)[C@H]2C(=O)O,IAM2530,0.4 µg/mL
CS(=O)(=O)C(F)C(O)(Cn1cncn1)c1ccc(F)cc1F,IFM 40808,16 µg/mL

A second listing of 8 rows from above:

smiles	strain or isolate	result
CS(C)=O	MTCC 343	>100 µg/mL
C=C1CO[C@H]2[C@@H](C)OC(OC[C@@]34C[C@H]5[C@H](C)CC[C@@H]5[C@@]5(C=O)C[C@@H]3C=C(C(C)C)[C@@]45C(=O)O)C[C@@H]12		>32 µg/mL
CCC(C)CC(C)CCCCCCCCC(=O)N[C@H]1C[C@@H](O)[C@H](NCCN)NC(=O)[C@@H]2[C@@H](O)CCN2C(=O)[C@H]([C@H](O)CCN)NC(=O)[C@H]([C@H](O)[C@@H](O)c2ccc(O)cc2)NC(=O)[C@@H]2C[C@@H](O)CN2C(=O)[C@H]([C@@H](C)O)NC1=O	MF5668	<0.03 µg/mL
CCCCCCCCCCS(=O)(=O)[C@H](C)[C@](O)(Cn1cncn1)c1ccc(F)cc1F	MTU6001	3.13 µg/mL
CC1(C)O[C@H]2O[C@H](C3=NOC(C#N)C3)[C@H](OCc3ccccc3)[C@H]2O1		>50 µg/mL
COc1cc(/C=N\N(C)Cc2cccc3ccccc23)cc(OC)c1OC		>64 µg/mL
CCCCCCCCCCC[C@@H]1CC(=O)NCC(=O)N[C@@H](CCCCN)C(=O)N[C@@H](C(C(C)C)C(C)(C)C)C(=O)N1	TIMM0063	32 µg/mL
CCCCC/C=C\C/C=C\CCCCCCCC(=O)N[C@H]1C[C@@H](O)[C@@H](O)NC(=O)[C@@H]2[C@@H](O)[C@@H](C)CN2C(=O)[C@H]([C@H](C)O)NC(=O)[C@H]([C@H](O)[C@@H](O)c2ccc(O)cc2)NC(=O)[C@@H]2C[C@@H](O)CN2C(=O)[C@H]([C@H](C)O)NC1=O		>20 µg/mL